Measurements taken from PubChem BioAssay AID720717 (ICCB-Longwood Screening Facility, Harvard Medical School, 2013).
The list shows a part of the results, in another mix than the full data. The source made the active and inactive calls.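 Rule for the calls: active = both repeat wells score below -2 in polarization z-score versus plate sample wells, excluding overly bright wells; inactive = the rest.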

tested on: LANA (ORF73) N-terminal peptide binding to nucleosomes, Human herpesvirus 8; test: inhibitors of KSHV LANA-nucleosome binding, primary screen, biochemical, fluorescence polarization, FITC-LANA1-23, chicken nucleosomes (AID 720717); settings: FITC-LANA1-23 / chicken nucleosome fluorescence polarization; hits give low values
Procedure, shortened: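 System – purified chicken nucleosomes with FITC-labelled LANA N-terminal peptide (1-23) · Amount – 240 nM purified chicken nucleosomes (480 nM peptide binding sites), final · Also added – 50 nM FITC-LANA1-23 probe · Medium – TEN-BT buffer, pH 7.5 · Incubation – compound with peptide–nucleosome mix 10–45 min at room temperature · Detection – fluorescence polarization, ex 480 nm, em 535 nm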

SMILES | z-score
Nc1nonc1-c1no[n+]([O-])c1-c1nonc1N | inactive: -1.14
NC(=O)Nc1ccc([As](=O)(O)O)cc1 | inactive: 0.185
O=P1(Nc2nc3ccc(Cl)cc3s2)COc2ccccc2OC1 | inactive: 0.447
CC1(C)Nc2ccccc2OP1(=O)c1ccccc1 (configuration not stated) | inactive: 1.03
NC(=O)COC(=O)C1(O)c2ccccc2-c2ccccc21 | inactive: -0.438
Nc1nonc1OCCOc1nonc1N | inactive: -0.678
Cc1cc(C)cc(OP(C)(=O)NCc2ccccc2)c1 (configuration not stated) | inactive: -0.172
CP(=O)(Nc1ccc(Cl)cc1)Oc1ccccc1 (configuration not stated) | inactive: -0.131
COc1ccccc1OP(C)(=O)Nc1ccccc1 (configuration not stated) | inactive: -0.201
OCCSCCO | inactive: -0.605
CN(C(=O)Cc1ccc(Cl)c(Cl)c1)[C@H]1CCCC[C@@H]1N1CCCC1 | inactive: -0.172
CCOP(OCC)N1CCOCC1 | inactive: 2.17
O=C(OCCN1CCN(CCOCc2ccccc2)CC1)C(O)(c1ccccc1)c1ccccc1 | inactive: -0.543
O=C(OC1/C(=C/c2ccccc2F)N2CCC1CC2)c1ccccc1 (configuration not stated) | inactive: -0.448
Nc1nonc1OCc1nonc1COc1nonc1N | inactive: -0.073
Cc1ccccc1NP(C)(=O)Nc1ccccc1C | inactive: -0.244
C/C1=C2N=C(/C=C3N=C(/C(C)=C4\[N-][C@@](C)([C@@H]5N=C1[C@](C)(CCC(=O)NC[C@@H](C)OP(=O)([O-])O[C@H]1[C@@H](O)[C@@H](n6cnc7cc(C)c(C)cc76)O[C@@H]1CO)[C@H]5CC(N)=O)[C@@](C)(CC(N)=O)[C@@H]4CCC(N)=O)[C@@](C)(CC(N)=O)[C@@H]\3CCC(N)=O)C(C)(C)[C@@H]/2CCC(N)=O.[C-]#N.[Co+3] | inactive: 0.335
